Experiments:
[1] = molecular target: T1, rCPD (cysteine protease domain of the Vibrio cholerae MARTX toxin) (Vibrio cholerae serotype O1, UniProt Q9KS12); settings: FIG. 4; 100 μM InsP6
[2] = molecular target: T1, rCPD (cysteine protease domain of the Vibrio cholerae MARTX toxin); assay: InsP6 binding to recombinant CPD; settings: read-out: binding constant for InsP6

Chains of the proteins cited; added tags and fusions are not shown. Residues count along the entry.
UniProt Q9KS12, 3462-3646 limits assumed: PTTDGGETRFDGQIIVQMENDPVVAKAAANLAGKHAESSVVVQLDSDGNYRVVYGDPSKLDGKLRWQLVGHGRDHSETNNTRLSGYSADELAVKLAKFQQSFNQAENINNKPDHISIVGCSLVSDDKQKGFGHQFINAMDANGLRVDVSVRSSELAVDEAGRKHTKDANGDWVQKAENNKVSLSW

Q: How did the “induction of autoprocessing of rCPD” value [1] turn out when `O=P(O)(O)O[C@H]1[C@H](OP(=O)(O)O)[C@@H](OP(=O)(O)O)[C@H](OP(=O)(O)O)[C@@H](OP(=O)(O)O)[C@H]1OP(=O)(O)O` was run?
A: induces autoprocessing of rCPD

Q: And the Kd [2]?
A: 600 nM
